Reference: paper PMC11696893
Construct, isoform or probe ends are uncertain for at least one entry. At least one verdict was read from the data and is not stated in words by the source.

The chains behind the UniProt entries cited, without tags or fusion partners. Residues count along the entry.
UniProt P27395, 2528-3432: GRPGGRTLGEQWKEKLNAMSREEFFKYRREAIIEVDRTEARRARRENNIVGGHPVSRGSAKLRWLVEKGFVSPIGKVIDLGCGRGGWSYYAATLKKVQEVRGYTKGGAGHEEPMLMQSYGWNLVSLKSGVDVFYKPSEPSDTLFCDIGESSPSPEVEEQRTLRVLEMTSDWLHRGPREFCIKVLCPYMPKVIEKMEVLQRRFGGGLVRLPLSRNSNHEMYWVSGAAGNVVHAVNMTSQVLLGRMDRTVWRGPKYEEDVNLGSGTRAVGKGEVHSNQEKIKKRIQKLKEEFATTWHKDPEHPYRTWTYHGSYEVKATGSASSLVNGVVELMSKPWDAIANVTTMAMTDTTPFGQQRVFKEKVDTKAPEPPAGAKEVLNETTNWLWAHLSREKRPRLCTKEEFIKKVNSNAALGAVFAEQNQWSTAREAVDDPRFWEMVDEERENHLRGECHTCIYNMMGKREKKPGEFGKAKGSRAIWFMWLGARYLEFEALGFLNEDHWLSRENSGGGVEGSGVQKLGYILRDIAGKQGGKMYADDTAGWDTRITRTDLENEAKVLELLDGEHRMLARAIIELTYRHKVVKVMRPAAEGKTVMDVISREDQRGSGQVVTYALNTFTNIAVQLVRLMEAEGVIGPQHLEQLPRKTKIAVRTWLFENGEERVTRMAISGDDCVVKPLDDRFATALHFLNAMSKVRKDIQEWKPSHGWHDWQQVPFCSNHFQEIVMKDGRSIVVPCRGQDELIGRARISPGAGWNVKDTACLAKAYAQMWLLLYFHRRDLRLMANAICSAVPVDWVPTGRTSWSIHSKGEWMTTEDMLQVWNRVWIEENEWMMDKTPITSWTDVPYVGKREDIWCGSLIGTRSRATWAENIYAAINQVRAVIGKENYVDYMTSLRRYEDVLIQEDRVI
UniProt P03314, 2507-3411: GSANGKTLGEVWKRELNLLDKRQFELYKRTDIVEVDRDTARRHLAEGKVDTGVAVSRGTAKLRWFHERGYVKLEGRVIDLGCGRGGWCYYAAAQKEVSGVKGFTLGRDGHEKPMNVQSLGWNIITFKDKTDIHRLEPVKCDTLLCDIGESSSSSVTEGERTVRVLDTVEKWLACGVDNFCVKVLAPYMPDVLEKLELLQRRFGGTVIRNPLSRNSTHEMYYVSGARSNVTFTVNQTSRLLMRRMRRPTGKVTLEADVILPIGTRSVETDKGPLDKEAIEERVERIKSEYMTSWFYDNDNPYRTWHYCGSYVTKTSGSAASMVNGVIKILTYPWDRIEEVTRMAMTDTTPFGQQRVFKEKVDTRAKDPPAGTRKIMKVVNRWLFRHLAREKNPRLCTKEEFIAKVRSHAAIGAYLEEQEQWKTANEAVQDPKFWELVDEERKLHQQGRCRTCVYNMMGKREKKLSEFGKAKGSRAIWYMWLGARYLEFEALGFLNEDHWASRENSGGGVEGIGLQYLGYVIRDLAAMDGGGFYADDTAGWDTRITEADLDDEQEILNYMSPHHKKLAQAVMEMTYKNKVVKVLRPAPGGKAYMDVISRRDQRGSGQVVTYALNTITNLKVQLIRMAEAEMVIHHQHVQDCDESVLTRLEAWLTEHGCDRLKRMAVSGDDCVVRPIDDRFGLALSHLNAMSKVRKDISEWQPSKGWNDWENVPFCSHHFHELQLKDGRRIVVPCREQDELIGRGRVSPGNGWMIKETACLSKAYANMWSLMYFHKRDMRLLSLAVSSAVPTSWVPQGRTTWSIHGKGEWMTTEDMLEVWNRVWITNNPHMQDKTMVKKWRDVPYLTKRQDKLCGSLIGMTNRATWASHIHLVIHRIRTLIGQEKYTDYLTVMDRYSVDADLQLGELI

Tests used:
[1] = target: JEV NS5 (Japanese encephalitis virus) (UniProt P27395); test: EMSA / SDS-PAGE cross-linking; conditions: C5, C10, C11 = 5-(ethoxysquaramate-linked) cytidine (CESQ); recombinant protein; label: radioactive; letters put together from the description
[2] = target: YFV NS5 (Yellow fever virus) (UniProt P03314); test: EMSA / SDS-PAGE cross-linking; conditions: C5, C10, C11 = 5-(ethoxysquaramate-linked) cytidine (CESQ); recombinant protein; label: radioactive; letters put together from the description

GAUACUAAGCCAAUAAAUUGAGAGAGAUAAAUUUAU [36_vRNA_3fCESQ]
binding result [1]: binds
binding result [2]: binds
